Measured data: PubChem BioAssay AID624099 (ICCB-Longwood, 2012)
Here is one part, drawn at random, of about 21,000 reagents. 497 of all reagents (2.4%) count as active. 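Higher z means weaker E2 silencing; only reporter increases were scored, and knock-downs that hurt cell survival may mask genuine repressor factors.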 A number with no mark means an inactive call. No sequences are given here.

Assay: 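Human genes that papillomavirus E2 requires to repress the HPV18 LCR promoter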 (primary screen)
Cells: human C33A cervical carcinoma cells (HPV-negative) stably expressing BPV1 E2 and an HPV18 LCR luciferase reporter
Reagents: siRNA pool against human genes, 40 nM
Time to read-out: 72 h
Detection: 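Per-well luciferase luminescence, z-scored on each plate against the plate mean and SD with control wells left out, then averaged across three replicate plates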
Scale: mean z-score and z-score: higher = stronger reporter signal, weaker E2 silencing
Hit rule: 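Hit if mean z-score reaches 2 and two or more of three replicate z-scores also reach 2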

| gene | mean z-score | z-score, replicate A | z-score, replicate B | z-score, replicate C |
| --- | --- | --- | --- | --- |
| CLCN3 (Cl-/H+ antiporter 3) | 0.82 | 0.8 | 1.01 | 0.66 |
| HLA-DPB1 (major histocompatibility complex, class II, DP beta 1) | -1.24 | -1.3 | -1.41 | -1.01 |
| ZSCAN1 (zinc finger and SCAN domain containing 1) | -0.77 | -0.58 | -0.78 | -0.95 |
| LENG9 (leukocyte receptor cluster member 9) | -0.22 | -0.15 | -0.41 | -0.09 |
| ARFGEF3 (ARFGEF family member 3) | 0.44 | 0.61 | -0.09 | 0.79 |
| TSNAXIP1 (translin associated factor X interacting protein 1) | -0.29 | -0.89 | 0.12 | -0.08 |
| H1-5 (H1.5 linker histone, cluster member) | -2.12 | -1.73 | -2.44 | -2.18 |
| LONP1 (lon peptidase 1, mitochondrial) | 0.68 | 0.55 | 0.98 | 0.52 |
| HHEX (hematopoietically expressed homeobox) | -0.95 | -0.73 | -1.11 | -1 |
| RNASEH2A (ribonuclease H2 subunit A) | -0.05 | 0 | -0.13 | 0 |
| ABL2 (ABL proto-oncogene 2, non-receptor tyrosine kinase) | -0.47 | -0.5 | -0.46 | -0.45 |
| RBM12B (RNA binding motif protein 12B) | 0.45 | 0.26 | 0.4 | 0.68 |
| LOC388903 (retired record) | 0.28 | 0.12 | 0.61 | 0.12 |
| CXorf65 (chromosome X open reading frame 65) | -0.31 | -0.05 | -0.42 | -0.47 |
| GSTM5 (glutathione S-transferase mu 5) | -0.38 | -0.15 | -0.48 | -0.5 |
| SDF2L1 (stromal cell derived factor 2 like 1) | 0.58 | 0.66 | 0.56 | 0.52 |
| EBLN1 (endogenous Bornavirus like nucleoprotein 1) | 0.79 | 1.5 | 0.13 | 0.73 |
| PGLS (6-phosphogluconolactonase) | 1.96 | 1.87 | 2.12 | 1.89 |
| MON1B (MON1 vesicular trafficking associated B) | 0.46 | 0.18 | 0.64 | 0.57 |
| LSMEM1 (leucine rich single-pass membrane protein 1) | -0.16 | -0.18 | -0.34 | 0.03 |
| BMP2KL (BMP2 inducible kinase like (pseudogene)) | -0.7 | -0.74 | -0.96 | -0.39 |
| MECP2 (methyl-CpG binding protein 2) | 1.14 | 0.94 | 1.47 | 1.01 |
| CDC25B (cell division cycle 25B) | 0.69 | 0.73 | 0.69 | 0.64 |
| PCDHGC5 (protocadherin gamma subfamily C, 5) | -0.71 | -0.66 | -0.69 | -0.78 |
| LOC401440 (retired record) | -0.26 | -0.32 | 0.06 | -0.52 |
| ECHDC1 (ethylmalonyl-CoA decarboxylase 1) | -0.29 | -0.63 | -0.22 | -0.02 |
| LOC401544 (retired record) | -2.13 | -1.98 | -2.21 | -2.21 |
| DCSTAMP (dendrocyte expressed seven transmembrane protein) | 1.19 | 1 | 1.45 | 1.14 |
| ERC1 (ELKS/RAB6-interacting/CAST family member 1) | 0.23 | 0.24 | 0.11 | 0.33 |
| IPO8 (importin 8) | 0.52 | 0.51 | 0.46 | 0.58 |
| AP4M1 (adaptor related protein complex 4 subunit mu 1) | 0.86 | 0.82 | 0.94 | 0.8 |
| M1AP (meiosis 1 associated protein) | 1.21 | 1.01 | 1.75 | 0.87 |
| SKA1 (spindle and kinetochore associated complex subunit 1) | -0.56 | -0.68 | -0.23 | -0.77 |
| RCOR1 (REST corepressor 1) | -1.21 | -1.17 | -1.15 | -1.32 |
| ABCD2 (ATP binding cassette subfamily D member 2) | 1.35 | 1.33 | 1 | 1.73 |
| SOCS7 (suppressor of cytokine signaling 7) | -1.07 | -1.07 | -1.16 | -0.98 |
| ATP2A2 | 0.86 | 0.75 | 0.7 | 1.13 |
| KIAA1210 | -0.92 | -0.89 | -1.04 | -0.82 |
| AOC2 (amine oxidase copper containing 2) | -0.75 | -0.73 | -1.02 | -0.51 |
